Compound potency records, mixed from different reports. Data source: NIAID ChemDB in PubChem.

All rows: tests in culture; species: Mycobacterium tuberculosis

An empty or dashed field is not shown.

SMILES,read-out,strain or isolate,read by,mutations,dose,value
CC(=O)c1c(OC(=O)c2ccccc2)cc2oc3cc(OC(=O)c4ccccc4)c(CC=C(C)C)c(O)c3c(=O)c2c1CC=C(C)C,MIC,H37Ra,resazurin,,,>200 µg/mL
CC1COc2c(N3CCN(C)CC3)c(F)cc3c(=O)c(C(=O)O)cn1c23,MIC90,ATCC 35820 (streptomycin-resistant),,,,2.1 µM
CCCCCCCCN1C(=O)CC(C)(SCC(N)C(=O)O)C1=O,MIC,H37Rv,,,,≤20 µg/mL
OC(c1cc(-c2ccc(Cl)cc2)nc2ccccc12)C1CCCCN1,MIC,H37Rv,resazurin,,,0.78 µg/mL
N#C/C(=C\c1ccc(I)cc1)n1nnc2ccccc21,MIC50,ATCC 27294,,,,17 µM
Fc1ccccc1-c1c(C(c2ccccc2)n2ccnc2)cnn1-c1ccccc1F,MIC50,ATCC 35828 (pyrazinamide-resistant),,,,≥100 µM
COC(=O)Cc1ccc(Oc2cc(/C=N/Nc3ccc([N+](=O)[O-])cc3[N+](=O)[O-])cc(OC)c2OC(C)=O)cc1,MIC,H37Rv,,,,250–1000 µg/mL
CC(C)=CC[C@H](O)C1=CC(=O)c2c(O)ccc(O)c2C1=O,MIC bound,H37Rv,BACTEC,,,>12.5 µg/mL
COc1ccccc1Oc1ccccc1NC(C)=O,MIC,H37Rv,,,,500–1000 µg/mL
CO[C@H]1/C=C/O[C@@]2(C)Oc3c(C)c(O)c4c(O)c(c(/C=N/N5CCN(C)CC5)c(O)c4c3C2=O)NC(=O)/C(C)=C\C=C\[C@H](C)[C@H](O)[C@@H](C)[C@@H](O)[C@@H](C)[C@H](OC(C)=O)[C@@H]1C,MIC,H37Ra,resazurin / absorbance,,,0.05–0.1 µg/mL
CN(C(=S)S(=O)(=O)C12CC3CC(CC(C3)C1)C2)c1ccccc1,MIC,H37Rv,BACTEC,,,128 µg/mL
COc1c(O)cc2oc3cc(O)c(CC=C(C)C)c(O)c3c(=O)c2c1CC=C(C)C,MIC,H37Ra,resazurin,,,6.25 µg/mL
C=C1C(=O)[C@@]23[C@H](O)C[C@@H]4C(C)(C)CC[C@@H](OC(C)=O)[C@@]4(C)[C@@H]2CC[C@@H]1[C@H]3O,MIC,H37Rv,resazurin / absorbance,,,12.5–25 µg/mL
Nc1nc(Cl)c(N=Nc2ccc(Cl)cc2)c(NCC2(CO)CC2)n1,inhibition,H37Rv,resazurin,,6.25 µg/mL,19%
CCCCCCCCNC1CC(=O)NC1=O,MIC,Clinical isolate (isoniazid-resistant),,,,≤20 µg/mL
Nc1c([N+](=O)[O-])ncn1[C@@H]1O[C@H](CO)[C@@H](O)[C@H]1O,MIC bound,H37Rv,resazurin,,,>6.25 µg/mL
COc1cc2oc3cc(O)c(CCC(C)C)c(O)c3c(=O)c2c(CCC(C)C)c1OC,MIC,M5,resazurin,,,1.56 µg/mL
C[C@@H]1CN(c2c(F)c(N)c3c(=O)c(C(=O)O)cn(C4CC4)c3c2F)C[C@H](C)N1,MIC,H37Rv,,,,0.2 µg/mL
Fc1ccccc1-n1ncc(C(c2ccccc2)n2ccnc2)c1-c1ccccc1,MIC90,ATCC 35820 (streptomycin-resistant),,,,≥100 µM
S=C([S-])N(Cc1ccccc1)CN(C(=S)[S-])c1ccccc1.[Na+].[Na+],MIC bound,H37Rv,BACTEC,,,>12.5 µg/mL
CCOc1cc2oc3cc(OCC)c(C(C)=O)c(CCC(C)C)c3c(=O)c2c(O)c1CCC(C)C,MIC,H37Ra,resazurin,,,>200 µg/mL
Clc1ccc(-n2ncc(C(c3ccccc3)n3ccnc3)c2-c2ccccc2)c(Cl)c1,MIC50,ATCC 35820 (streptomycin-resistant),,,,60.8 µM
NCCC(O)C(N)CC(=O)NC1CNC(=O)C(C2CCN=C(N)N2)NC(=O)/C(=C/NC(N)=O)NC(=O)C(CO)NC(=O)C(CO)NC1=O,MIC,H37Rv,,,,12.5 µg/mL
Cc1cc2c(S(=O)(=O)N3CCN(C(=O)C4CCCCC4)CC3)cccc2cn1,MIC90,SRMV2.6,resazurin,Inosine monophosphate dehydrogenase-resistant,,>100 µM
CC1COc2c(N3CCN(C)CC3)c(F)cc3c(=O)c(C(=O)O)cn1c23,MIC,H37RV (KAN-R),,,,1.25 µg/mL
CCCCCCCCN1C(=O)C=C(C)C1=O,MIC,H37Ra,,,,≤20 µg/mL
C[C@@H]1C[C@H]2[C@@H](CCCN2C(=O)c2ccccc2)CC1=O,inhibition,H37Rv,resazurin,,6.25 µg/mL,-16%
NNC(=O)c1ccncc1,EC50,H37Rv,luminescence,,,0.35 µM
NNC(=O)c1ccncc1,MIC,H37RV (DL8280-R),,,,0.05 µg/mL
COc1cccc(CC(=O)N2CCN(S(=O)(=O)c3cccc4cnccc34)CC2)c1,MIC90,SRMV2.6,resazurin,Inosine monophosphate dehydrogenase-resistant,,>250 µM
N#C/C(=C/c1cccc(Cl)c1)n1nnc2ccccc21,MIC90,ATCC 27294,,,,>100 µM
NC(=S)N/N=C1/C(=O)N(c2ccc(Cl)cc2Cl)C(=O)C1C(=O)Nc1ccc(Cl)cc1Cl,inhibition,H37Rv,BACTEC,,12.8 µg/mL,7%
O=C(c1ccccc1)N1CCN(S(=O)(=O)c2cccc3cnccc23)CC1,MIC90,SRMV2.6,resazurin,Inosine monophosphate dehydrogenase-resistant,,>100 µM
Clc1ccc(-n2ncc(C(c3ccccc3)n3ccnc3)c2-c2ccccc2)cc1,MIC50,ATCC 35828 (pyrazinamide-resistant),,,,≥100 µM
C1COCCN1.S=C(S)NN1CCOCC1,inhibition,H37Rv,BACTEC,,12.5 µg/mL,2%
Clc1ccc(-n2ncc(C(c3ccccc3)n3ccnc3)c2-c2ccccc2Cl)c(Cl)c1,MIC50,ATCC 35828 (pyrazinamide-resistant),,,,15.6 µM
NC(=O)c1cnccn1,MIC,Isolate 11830,,,,100 µg/mL
N[C@@H]1CONC1=O,MIC,,,,,30 µg/mL
COc1cc(CCN)cc(Oc2c(Cl)cc(CC(=O)O)cc2Cl)c1O,MIC,H37Rv,,,,500 µg/mL
O=C(CCN1C(=O)CCC1=O)Nc1ccc(N2CCCCC2)cc1,MIC,H37Ra,,,,≤20 µg/mL
NNC(=O)c1ccncc1,MIC,Erdman,BACTEC,,,0.023 µg/mL
N#C/C(=C\c1cccc(C#N)c1)n1nnc2ccccc21,MIC50,ATCC 27294,,,,20 µM
O=C(Nc1ccc(Br)cc1)c1cnccn1,MIC,EMB-R,,,,>12.5 µg/mL
C=C1C[C@@]23CC[C@H]4[C@@](C)(CCC[C@]4(C)C(=O)O)[C@@H]2[C@@H](OC(C)=O)C[C@@H]1C3,MIC,H37Rv,resazurin / absorbance,,,>50 µg/mL
COc1cc(/C=C/[N+](=O)[O-])cc(Br)c1O,MIC,H37Rv,,,,125 µg/mL
Cc1c(C(=O)CC(=O)C(=O)NC2C3CC4CC(C3)CC2C4)[n+](=O)c2ccccc2n1[O-],inhibition,H37Rv,resazurin,,6.25 µg/mL,73%
C=C1C(=O)[C@@]23[C@H](O)C[C@@H]4C(C)(C)CCC[C@@]4(C)[C@@H]2CC[C@@H]1[C@H]3O,MIC,H37Ra,resazurin / absorbance,,,3.125–6.25 µg/mL
NNC(=O)c1ccncc1,MIC90,ATCC 27294,,,,1.1 µM
CN1CC[C@]23c4ccccc4N[C@@H]1[C@]21CCN(C)[C@@H]3Nc2ccccc21,inhibition,H37Rv,BACTEC,,12.8 µg/mL,10%
CC(C)=CCc1cc(/C=C/C(=O)c2ccc(O)c(CC=C(C)C)c2O)ccc1O,MIC,MTCS2,resazurin,,,9.76 µg/mL
CO[C@H]1/C=C/O[C@@]2(C)Oc3c(C)c(O)c4c(O)c(c5c(c4c3C2=O)NC2(CCN(CC(C)C)CC2)N=5)=NC(=O)/C(C)=C\C=C\[C@H](C)[C@H](O)[C@@H](C)[C@@H](O)[C@@H](C)[C@H](OC(C)=O)[C@@H]1C,MIC90,22 strains,,,,12.5 µg/mL
N#C/C(=C\c1cccc(F)c1)n1nnc2ccccc21,MIC50,ATCC 27294,,,,55.3 µM
C=C1C[C@]23C[C@H]1CC[C@H]2[C@]1(C)CCC[C@](C)(COC(C)=O)[C@H]1C[C@H]3O,MIC,H37Ra,resazurin / absorbance,,,25–50 µg/mL
Nc1[nH][nH]c(=O)c1N=Nc1ccccc1,inhibition,H37Rv,BACTEC,,12.5 µg/mL,18%
COc1cc2oc3cc(O)c(CCC(C)C)c(O)c3c(=O)c2c(CCC(C)C)c1C(C)=O,MIC,H37Ra,resazurin,,,0.78 µg/mL
CCOC(=O)C1CCCC12Nc1cccc3cccc(c13)N2,MIC bound,H37Rv,BACTEC,,,>12.8 µg/mL
N#C/C(=C\c1cccc([N+](=O)[O-])c1)n1nnc2ccccc21,MIC50,ATCC 27294,,,,38.2 µM
O=c1cc(-c2ccc(O)c(O)c2-c2c(O)cc(O)c3c(=O)cc(-c4ccc(O)cc4)oc23)oc2cc(O)cc(O)c12,MIC,MTCS1,resazurin,,,>39.06 µg/mL
O=C(NC1CCN(S(=O)(=O)c2cccc3cnccc23)CC1)C1CCCCC1,MIC90,H37Rv,resazurin,,,>100 µM
COc1cc(C(OC(C)=O)OC(C)=O)cc(NC(C)=O)c1Oc1cc(C(OC(C)=O)OC(C)=O)cc(OC)c1OC(C)=O,MIC,H37Rv,,,,1000 µg/mL
Cl.Cl.N=C(N)c1ccc(NC(=O)c2ccc(C(=O)Nc3ccc(C(=N)N)cc3)c(N)c2)cc1,MIC bound,H37Rv,BACTEC,,,>12.5 µg/mL
CCCCCCCCCN1C(=O)CC(SCCNC(=O)c2ccc(C)cc2)C1=O,MIC,H37Rv,,,,≤20 µg/mL
CCCSc1nn2cc(NC(=O)OC)nc2s1,MIC bound,H37Rv,BACTEC,,,>12.5 µg/mL
COc1cccc(CNC(=O)N2CCN(S(=O)(=O)c3cccc4cnccc34)CC2)c1,MIC90,SRMV2.6,resazurin,Inosine monophosphate dehydrogenase-resistant,,>100 µM
N#C/C(=C/c1cccc(Br)c1)n1nnc2ccccc21,MIC90,ATCC 27294,,,,>100 µM
CCCCCCCCCN1C(=O)CC(SCCNC(=O)C(CC)CCCC)C1=O,MIC,Clinical isolate (isoniazid-resistant),,,,≤20 µg/mL
C=C1C(=O)[C@@]23[C@@H]4C[C@H]5C(=CCC5(C)C)[C@@](C)(O4)[C@@H]2CC[C@@H]1[C@H]3O,MIC,H37Ra,resazurin / absorbance,,,25–50 µg/mL
CO[C@H]1/C=C/O[C@@]2(C)Oc3c(C)c(O)c4c(O)c(c(/C=N/N5CCN(C6CCCC6)CC5)c(O)c4c3C2=O)NC(=O)/C(C)=C\C=C\[C@H](C)[C@H](O)[C@@H](C)[C@@H](O)[C@@H](C)[C@H](OC(C)=O)[C@@H]1C,MIC,1022,,,,0.08 µg/mL
CCCCCCCCCN1C(=O)CCCC1=O,MIC,H37Rv,,,,≤20 µg/mL
O=C(C1CCCCC1)N1CCN(S(=O)(=O)c2ccc3ccccc3c2)CC1,MIC90,SRMV2.6,resazurin,Inosine monophosphate dehydrogenase-resistant,,>100 µM
Fc1ccccc1-c1c(C(c2ccccc2)n2ccnc2)cnn1-c1ccccc1,MIC90,ATCC 27294,,,,≥100 µM
C[C@@H]1CCC([C@@H](C)C(=O)OCCO)[C@]23OO[C@](C)(CCC12)O3,MIC,H37Rv,agar,,,3.12 µg/mL
CCCCN(C)N=Nc1c(C(N)=O)n[nH]c1C(C)C,MIC bound,H37Rv,BACTEC,,,>12.5 µg/mL
CCCCCCCCCN1C(=O)CC(NC(C)CCN(CC)CC)C1=O,MIC,H37Ra,,,,≤20 µg/mL
CC(=O)C1=C(C(=O)O)[NH+]([O-])C2C=CC=CC2[NH+]1[O-],inhibition,H37Rv,BACTEC,,12.5 µg/mL,99%
CCCCCCCCCN1C(=O)CC(Nc2ccc(N3CCCCC3)cc2)C1=O,MIC,H37Ra,,,,≤20 µg/mL
CCC(/C=C/C1=C(O)c2ccccc2C(=O)C1=O)CC,MIC bound,H37Rv,BACTEC,,,≤128 µg/mL
CCCC(=O)Oc1cc2oc3cc(OC(=O)CCC)c(C(C)=O)c(CCC(C)C)c3c(=O)c2c(O)c1CCC(C)C,MIC,H37Ra,resazurin,,,25 µg/mL
COc1ccc2c(C)[n+]3ccc4cc(OC)c(OC)cc4c3cc2c1.O=C(O)CS(=O)(=O)O,MIC bound,H37Rv,BACTEC,,,>12.5 µg/mL
C=C1C[C@@]23CC[C@@H]4[C@@](C)(COC(C)=O)CCC[C@@]4(C)[C@@H]2[C@H](O)C[C@@H]1C3,MIC,H37Rv,resazurin / absorbance,,,>50 µg/mL

MIC50, MIC90 and the like: level of inhibition, or share of isolates inhibited. a–b is a range or a potency band. MIC bound: limit read from a one-dose screen. Neighbouring rows are from separate reports. Inhibition is in % at the dose shown (toxicity tests: loss of growth or viability). ECn is the concentration giving n% inhibition of infection, replication or growth.